Record: PubChem BioAssay AID1259414 (Drosophila RNAi Screening Center, 2018)
In all, the deposit lists about 24,000 reagents; below is an unselected part of those that have a named target and a result. Over the whole deposit, about 1,210 (5%) got an active call. 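Inactive calls also include excluded dsRNAs with several or no targets, genes unexpressed in JW18, and well A1, regardless of score.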 Names joined by + are all predicted targets of the reagent. Reagent sequences are not shown.

Purpose: 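Genome-wide screen for host control of endosymbiont load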 (primary screen)
Cell system: Drosophila JW18 cells infected with Wolbachia
Reagent: long dsRNA against Drosophila genes, 0.25 µg dsRNA per well of a 384-well plate
Duration: 5 days
Treatment: cells persistently infected with Wolbachia before knock-down; no added drug
Measurement: 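Imaged fluorescence in situ signal for Wolbachia 23S rRNA per DAPI-counted host cell, given as a robust z-score within each plate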
Reading the numbers: Wolbachia per cell robust z: higher = more Wolbachia per host cell than the plate typical
Active means: 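Active if absolute robust z reaches 1.5 in two or more of three replicates, leaving out multi- or no-target dsRNAs, genes unexpressed in JW18 and A1 wells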

| predicted target | DRSC id | Wolbachia per cell robust z, rep 1 | Wolbachia per cell robust z, rep 2 | Wolbachia per cell robust z, rep 3 | activity call |
| --- | --- | --- | --- | --- | --- |
| CG12224 | DRSC14480 | 0.945 | -0.675 | 0.922 | inactive |
| CG15472 | DRSC18055 | -1.45 | -2.89 | -1.33 | inactive |
| CG14868 | DRSC14991 | 0.119 | -0.0395 | -1.05 | inactive |
| CG14868 | DRSC27707 | -0.142 | 2.81 | 2.03 | active |
| CG42764 | DRSC40539 | 0.28 | -1.22 | 0.21 | inactive |
| CG42764 | DRSC40540 | 0.649 | -2.65 | -1.76 | inactive |
| per (period) | DRSC18818 | -0.151 | 0.26 | 0.951 | inactive |
| per (period) | DRSC26579 | 0.144 | 1.34 | 0.315 | inactive |
| Lon (Lon protease) | DRSC11049 | -0.523 | -1.24 | 0.702 | inactive |
| Lon (Lon protease) | DRSC26015 | -0.559 | 0.757 | 0.00189 | inactive |
| CG31862 | DRSC01245 | -0.82 | -1.16 | -0.0531 | inactive |
| PKD (Protein Kinase D) | DRSC16200 | -3.76 | -5.09 | -0.826 | inactive |
| Egfr (Epidermal growth factor receptor) | DRSC03871 | -2.19 | -1.17 | -1.18 | inactive |
| Egfr (Epidermal growth factor receptor) | DRSC04613 | -2.89 | -0.468 | 0.965 | inactive |
| Egfr (Epidermal growth factor receptor) | DRSC40666 | 0.533 | -0.389 | -0.169 | inactive |
| RpL39 (Ribosomal protein L39) | DRSC04651 | 1.11 | 2.85 | 1.46 | inactive |
| CG10663 | DRSC09770 | -0.168 | 0.319 | 0.921 | inactive |
| RFeSP (Rieske iron-sulfur protein) | DRSC00702 | 0.475 | 0.0937 | -1.41 | inactive |
| RFeSP (Rieske iron-sulfur protein) | DRSC27607 | -0.567 | -0.404 | 0.541 | inactive |
| JMJD7 (Jumonji domain containing 7) | DRSC09703 | 0.936 | 0.638 | -0.978 | inactive |
| CG13028 | DRSC09908 | 0.358 | 0.725 | -0.0645 | inactive |
| CG31816 | DRSC01547 | 1.14 | -0.116 | -0.185 | inactive |
| CG17598 | DRSC20636 | -5.68 | 0.623 | 0.138 | inactive |
| CG40160 | DRSC37756 | 0.366 | 0.461 | 1.17 | inactive |
| CG8620 | DRSC11020 | -1.38 | -1.48 | -0.98 | inactive |
| CG8620 | DRSC25632 | 1.21 | 0.369 | 0.661 | inactive |
| gek (genghis khan) | DRSC04688 | -1.59 | -0.0546 | -1.15 | inactive |
| HHEX (Hematopoietically expressed homeobox) | DRSC16186 | 0.149 | -1.2 | 1.34 | inactive |
| HHEX (Hematopoietically expressed homeobox) | DRSC29035 | -0.483 | 0.458 | -0.238 | inactive |
| SecS (Sec synthetase) | DRSC12222 | 0.181 | -0.0232 | -0.0998 | inactive |
| Galk (Galactokinase) | DRSC10500 | 1.13 | -3.13 | 0.115 | inactive |
| Galk (Galactokinase) | DRSC26987 | 0.92 | 0.902 | -0.0276 | inactive |
| REG (Proteasome regulator gamma) | DRSC20273 | -0.352 | -0.639 | -0.456 | inactive |
| CG9641 | DRSC00721 | -0.225 | -1.58 | -1.1 | inactive |
| CG9641 | DRSC27080 | 0.572 | -0.0428 | 0.234 | inactive |
| CG18477 + CG31780 | DRSC01955 | 1.13 | -1.47 | -2.02 | inactive |
| CG18477 + CG31780 | DRSC26122 | -0.276 | -1.63 | -0.665 | inactive |
| CG43134 | DRSC40512 | -1.31 | -0.0341 | -0.0494 | inactive |
| coil (coilin) | DRSC07242 | 0.425 | -1.29 | -0.251 | inactive |
| coil (coilin) | DRSC26055 | 0.27 | -2.52 | -0.678 | inactive |
| CG15005 | DRSC08459 | -0.0313 | -1.25 | 0.405 | inactive |
| CG15005 | DRSC26556 | -1.38 | -0.151 | -0.719 | inactive |
| CG10384 | DRSC03933 | -0.874 | -3.2 | -0.95 | inactive |
| CG10384 | DRSC28924 | -0.0154 | 0.812 | 0.183 | inactive |
| CG46025 | DRSC01000 | 1.06 | -2.84 | -0.424 | inactive |
| CG46025 | DRSC02396 | -0.00422 | 0.299 | -0.669 | inactive |
| CG46025 | DRSC03023 | 0.128 | 0.133 | -0.564 | inactive |
| CG46025 | DRSC29424 | 0.311 | 0.675 | -2.95 | inactive |
| Muc18B (Mucin 18B) | DRSC21644 | 0.781 | 0.807 | 0.614 | inactive |
| Muc18B (Mucin 18B) | DRSC28889 | 0.0593 | 0.318 | -0.624 | inactive |
| CG5877 | DRSC19963 | -2.63 | 0.581 | 0.303 | inactive |
| CG5877 | DRSC28413 | 1.37 | 1.31 | 0.801 | inactive |
| CG4956 | DRSC15683 | -0.626 | 0.54 | -0.447 | inactive |
| CG4956 | DRSC24523 | -0.862 | -0.624 | -0.477 | inactive |
| CG9581 | DRSC20695 | -3.73 | -1 | -3.63 | active |
| CG9581 | DRSC22247 | -0.07 | 0.829 | 0.237 | inactive |
| NaPi-T (Na[+]-dependent inorganic phosphate cotransporter) | DRSC07476 | -4.18 | -4.51 | -0.203 | active |
| NaPi-T (Na[+]-dependent inorganic phosphate cotransporter) | DRSC24468 | -1.02 | 0.623 | -0.181 | inactive |
| NaPi-T (Na[+]-dependent inorganic phosphate cotransporter) | DRSC41259 | 0.0422 | 0.65 | -1.33 | inactive |
| Stacl (Stac-like) | DRSC05553 | 3.97 | 4.1 | 5.95 | inactive |
| Stacl (Stac-like) | DRSC06260 | 0.39 | 1.18 | -0.717 | inactive |
| Stacl (Stac-like) | DRSC06261 | -3.99 | 0.446 | 0.0492 | inactive |
| Stacl (Stac-like) | DRSC06777 | -4.98 | -4.71 | -1.09 | inactive |
| Stacl (Stac-like) | DRSC23019 | 0.557 | -4.62 | -0.871 | inactive |
| Stacl (Stac-like) | DRSC23183 | 0.403 | -0.0955 | 0.135 | inactive |
| Stacl (Stac-like) | DRSC25838 | -1.44 | -0.0543 | 0.242 | inactive |
| stol (stolid) | DRSC01956 | 1.13 | -1.26 | -3.18 | inactive |
| yellow-f2 | DRSC16372 | -1.22 | -0.929 | 0.396 | inactive |
| yellow-f2 | DRSC26523 | -1.48 | 0.255 | -1.72 | inactive |

11 entries from above, ordered by “Wolbachia per cell robust z, rep 2”, lowest first.
| predicted target | DRSC id | Wolbachia per cell robust z, rep 1 | Wolbachia per cell robust z, rep 2 | Wolbachia per cell robust z, rep 3 | activity call |
| --- | --- | --- | --- | --- | --- |
| PKD (Protein Kinase D) | DRSC16200 | -3.76 | -5.09 | -0.826 | inactive |
| Lon (Lon protease) | DRSC11049 | -0.523 | -1.24 | 0.702 | inactive |
| Egfr (Epidermal growth factor receptor) | DRSC03871 | -2.19 | -1.17 | -1.18 | inactive |
| CG31862 | DRSC01245 | -0.82 | -1.16 | -0.0531 | inactive |
| Egfr (Epidermal growth factor receptor) | DRSC04613 | -2.89 | -0.468 | 0.965 | inactive |
| Egfr (Epidermal growth factor receptor) | DRSC40666 | 0.533 | -0.389 | -0.169 | inactive |
| per (period) | DRSC18818 | -0.151 | 0.26 | 0.951 | inactive |
| CG10663 | DRSC09770 | -0.168 | 0.319 | 0.921 | inactive |
| Lon (Lon protease) | DRSC26015 | -0.559 | 0.757 | 0.00189 | inactive |
| per (period) | DRSC26579 | 0.144 | 1.34 | 0.315 | inactive |
| RpL39 (Ribosomal protein L39) | DRSC04651 | 1.11 | 2.85 | 1.46 | inactive |
